Measured values from several laboratories, pooled; numbers as filed in NIAID ChemDB.

Shared fields: whole-cell or culture tests; organism: Human cytomegalovirus; read-out: EC50

Neighbouring rows are from separate reports. ECn: concentration that inhibits the pathogen or its effect by n%. a–b is a range or a potency band.

OC[C@@H]1O[C@H](n2c(Br)nc3cc(Cl)c(Cl)cc32)[C@@H](O)[C@H]1O ; strain: AD169 ; cell line: MRC-5 ; read by: plaque count ; value: 1.3 µM
OC[C@H]1O[C@@H](c2cc(Br)c(F)cc2F)C[C@@H]1O ; strain: DAVIS ; cell line: HEL ; read by: cytopathic effect ; value: >200 µM
Nc1nc2c(ncn2[C@@H]2C[C@H](CO)[C@H]2CO)c(=O)[nH]1 ; strain: AD169 ; cell line: WI-38 ; read by: plaque count ; value: 2–4 µM
CC1(C)C(=O)NN=C1c1cccc(NC(=O)Nc2ccc(F)c(F)c2)c1 ; cell line: NHDF ; read by: cytopathic effect ; value: 0.5 µM
CCOC(=O)CC1OP(=O)(OC[C@H]2O[C@@H](n3cc(/C=C/Br)c(=O)[nH]c3=O)C[C@@H]2O)Oc2cccc(Cl)c21 ; strain: AD169 ; cell line: HELF ; read by: plaque count ; value: >128 µg/mL
COc1ccccc1CNC(=O)C1=Cc2ccncc2CC1 ; strain: AD169 ; cell line: HS68 ; read by: plaque count ; value: 1.8 µM
CC(C)(CF)C(=O)Nc1cccc(NS(=O)(=O)c2ccc(-c3noc(-c4ccccc4)n3)cc2)c1 ; cell line: HELF ; read by: cytopathic effect ; value: 0.04 µM
Nc1nc2c(ncn2COC(CO)CO)c(=O)[nH]1 ; strain: AD169 ; cell line: HS68 ; read by: plaque count ; value: 0.3 µg/mL
Cc1ccc(S(=O)(=O)NC(N)=NCCC[C@H](NC(=O)OCc2cccnc2)C(=O)N[C@H](C(=O)N[C@H](C=O)Cc2ccccc2)C(C)(C)C)cc1 ; strain: HE ; cell line: HELF ; read by: plaque count ; value: 0.49 µM
OC[C@H]1O[C@@H](c2cc(I)c(F)cc2F)C[C@@H]1O ; strain: AD169 ; cell line: HEL ; read by: cytopathic effect ; value: >200 µM
CCOP(=O)(O)CCC(CO)OCn1cnc2c(=O)[nH]c(N)nc21 ; strain: C8708 (ganciclovir-susceptible) ; cell line: MRC-5 ; read by: plaque count ; value: 34 µg/mL
O=c1[nH]c(=O)n([C@H]2C[C@H](O)[C@@H](COP3(=O)OCc4ccc5ccccc5c4O3)O2)cc1/C=C/Br ; strain: AD169 ; cell line: HELF ; read by: plaque count ; value: >128 µg/mL
CC1(C)C(=O)NN=C1c1cccc(NC(=O)Nc2ccc(F)c(Cl)c2)c1 ; cell line: NHDF ; read by: cytopathic effect ; value: 0.4 µM
OC[C@H]1O[C@@H](n2cnc3c(=S)nc[nH]c32)[C@H](O)[C@@H]1O ; cell line: WI-38 ; read by: cytopathic effect ; value: <320 µg/mL
Cc1cncc2ccc(C(=O)NCc3ccccc3OC(C)C)nc12 ; cell line: HS68 ; value: 0.004 µg/mL
OC[C@H]1O[C@H](c2cc(Br)c(F)cc2F)C[C@@H]1O ; strain: AD169 ; cell line: HEL ; read by: cytopathic effect ; value: >200 µM
Nc1ccn([C@@H]2O[C@@H](CO)[C@@H](O)[C@@H]2O)c(=O)n1 ; strain: WF1 ; cell line: FLOW 2002 ; read by: plaque count ; value: 40 µg/mL
O=C1c2ccccc2C(=O)N1[C@H]1CC2CC3CC(C2)C1C3 ; strain: DAVIS ; cell line: HEL ; read by: plaque count ; value: >20 µg/mL
S=c1nc[nH]c2nc[nH]c12 ; cell line: WI-38 ; read by: cytopathic effect ; value: 320 µg/mL
CC(C)c1ccc(NC(=O)N2CCC[C@H]2C(=O)N2CC[C@H]3[C@H]2[C@H](C)C(=O)N3C(=O)c2nc3ccccc3s2)cc1 ; strain: AD169 ; cell line: VERO ; read by: ELISA ; value: 5 µM
Nc1nc2c(ncn2COC(CO)CO)c(=O)[nH]1 ; strain: TOWNE ; cell line: WI-38 ; read by: plaque count ; value: 1 µM
O=C1c2ccccc2C(=O)N1CC12CC3CC(CC(C3)C1)C2 ; strain: DAVIS ; cell line: HEL ; read by: plaque count ; value: >100 µg/mL
CN(C)c1cccc2c(S(=O)(=O)Nc3ccc(NC(=O)C(C)(C)C=O)cc3)cccc12 ; strain: DAVIS ; cell line: Human embryonic lung fibroblasts ; read by: cytopathic effect ; value: 0.29 µM
Nc1ncnc2c1ncn2C[C@@H](CO)OCP(=O)(O)O ; strain: DAVIS ; cell line: HEL ; read by: plaque count ; value: 0.57 µM
Nc1ncnc2c1ncn2[C@@H]1O[C@H](CO)[C@@H](O)[C@@H]1O ; cell line: WI-38 ; read by: cytopathic effect ; value: <32 µg/mL
CN(C)c1cccc2c(S(=O)(=O)Nc3ccc(NC(=O)C(C)(C)CO)cc3)cccc12 ; strain: DAVIS ; cell line: Human embryonic lung fibroblasts ; read by: cytopathic effect ; value: 0.3 µM
NC(=O)c1c(Cl)c(-c2cccnc2)n2c1CCCC2 ; strain: U9070 (ganciclovir-resistant) ; cell line: HEL ; read by: plaque count ; value: 0.0018 µM
Cc1cc([C@H]2C[C@H](O)[C@@H](CO)O2)c(F)cc1F ; strain: AD169 ; cell line: HEL ; read by: cytopathic effect ; value: >200 µM
CC#Cc1cn([C@@H]2O[C@H](CO)[C@@H](O)[C@@H]2O)c(=O)[nH]c1=O ; cell line: VERO ; read by: plaque count ; value: >100 µM
Cc1cc(C)cc(Cn2c(=O)ccn(Cc3ccccn3)c2=O)c1 ; strain: AD169 ; value: >160 µM
Nc1nc(NC2CC2)c2ncn(C=C3CC3CO)c2n1 ; strain: 759rD100 ; cell line: HFF ; read by: plaque count ; value: 16.9 µM
Cc1cc(C)cc(Cn2c(=S)ccn(Cc3cccs3)c2=O)c1 ; strain: AD169 ; value: 10 µM
CC(C)(C)C(=O)Nc1ccc(NS(=O)(=O)c2cccc3ccccc23)cc1 ; strain: DAVIS ; cell line: Human embryonic lung fibroblasts ; read by: cytopathic effect ; value: 0.29 µM
Nc1nc2c(ncn2COC(CO)CO)c(=O)[nH]1 ; strain: 2916R (1263W94-resistant) ; cell line: HFF ; read by: virus yield ; value: <1 µM
C=C1[C@H](CO)[C@@H](O)C[C@@H]1n1cnc2c(=O)[nH]c(N)nc21 ; cell line: WI-38 ; read by: plaque count ; value: 75 µM
CC(C)n1c(-c2cccc(NC(=O)Nc3cccc(Cl)c3)c2)n[nH]c1=O ; cell line: NHDF ; read by: cytopathic effect ; value: 0.19 µM
Cc1cc(C)cc(Cn2c(=S)ccn(Cc3ccc(Cl)cc3)c2=O)c1 ; strain: AD169 ; value: >54 µM
O=C1CCCC(C23CC4CC(C2)CC(N2C(=O)c5ccccc5C2=O)(C4)C3)C1 ; strain: AD169 ; cell line: HEL ; read by: plaque count ; value: >4 µg/mL
Nc1nc(=O)n([C@@H]2O[C@@H](CO)[C@H](O)[C@H]2F)cc1I ; strain: WF1 ; cell line: FLOW 2002 ; read by: plaque count ; value: >100 µg/mL
Nc1ccn(C[C@@H](CO)OCP(=O)(O)O)c(=O)n1 ; strain: LY9990 (ganciclovir-resistant) ; cell line: HEL ; read by: plaque count ; value: 0.57 µM
CN(C)c1cccc2c(S(=O)(=O)Nc3ccc(NC(=O)C(C)(C)C(=O)O)cc3)cccc12 ; strain: DAVIS ; cell line: Human embryonic lung fibroblasts ; read by: cytopathic effect ; value: 47 µM
CCCCCCCCCCCCCCCCOCCCOP(=O)(O)CO[C@H](CO)Cn1ccc(N)nc1=O ; strain: C8805/37-1-1 (drug-resistant mutant) ; cell line: MRC-5 ; read by: plaque count ; value: 0.00095 µM
COC(=O)[C@H](C)NP(=O)(OCC1C/C1=C/n1cnc2c(NC3CC3)nc(N)nc21)Oc1ccccc1 ; strain: AD169 ; cell line: HFF ; read by: plaque count ; value: 6.2 µM
O=C1c2ccccc2C(=O)N1CCCC1C2CC3CC(C2)CC1C3 ; strain: AD169 ; cell line: HEL ; read by: plaque count ; value: ≥4 µg/mL
Nc1nc2c(ncn2CC(CO)OCP(=O)(O)O)c(=O)[nH]1 ; cell line: WI-38 ; read by: plaque count ; value: 0.4 µM
Cn1cc(C(=O)NCc2ccc(Cl)cc2)c(=O)c2cc(CN3CCOCC3)ccc21 ; strain: AD169 ; cell line: VERO ; read by: plaque count ; value: 0.94 µM
OC[C@H]1O[C@@H](c2cc(F)c(F)cc2F)C[C@@H]1O ; strain: AD169 ; cell line: HEL ; read by: cytopathic effect ; value: >200 µM
Nc1nc2c(ncn2C=C2CC2CO)c(=O)[nH]1 ; strain: C9208/3-3-1 ; cell line: HFF ; read by: plaque count ; value: 6.9 µM
Nc1ncnc2c1ncn2C=C1CC1CO ; strain: VR5406 (ganciclovir-resistant) ; read by: plaque count ; value: 1.6 µM
Nc1ccn(C[C@@H](CO)OCP(=O)(O)O)c(=O)n1 ; cell line: WI-38 ; read by: plaque count ; value: 10–100 µg/mL
O=c1[nH]c(=O)n([C@H]2C[C@H](O)[C@@H](COP3(=O)OCc4cccc(-c5ccccc5)c4O3)O2)cc1/C=C/Br ; strain: AD169 ; cell line: HELF ; read by: plaque count ; value: >128 µg/mL
Cc1cc(C)cc(Cn2c(=O)ccn(Cc3ccccc3Cl)c2=O)c1 ; strain: AD169 ; value: 21 µM
Nc1nc(=O)n([C@H]2O[C@@H](CO)[C@H](O)[C@H]2F)cc1I ; strain: WF1 ; cell line: FLOW 2002 ; read by: plaque count ; value: >100 µg/mL
CNc1cccc2c(S(=O)(=O)Nc3ccc(NC(=O)C(C)(C)C(=O)O)cc3)cccc12 ; strain: DAVIS ; cell line: Human embryonic lung fibroblasts ; read by: cytopathic effect ; value: 125 µM
Nc1nc(-c2ccc(NC(=O)CCN(C(=O)c3cccnc3)C3CCc4ccccc43)cc2)cs1 ; strain: AD169 ; cell line: HS68 ; read by: plaque count / crystal violet ; value: 8 µM
O=C(Nc1cccc(F)c1)Nc1cccc(C2=NNC(=O)C23CCCCC3)c1 ; cell line: NHDF ; read by: cytopathic effect ; value: 1.9 µM
OC[C@H]1O[C@@H](n2c(Cl)nc3cc(Cl)c(Cl)cc32)[C@H](O)[C@@H]1O ; strain: C4 (D341E) ; read by: virus yield ; value: <25 µM
OC[C@H]1O[C@@H](n2c(Br)nc3cc(Cl)c(Cl)cc32)[C@H](O)[C@@H]1O ; strain: TOWNE ; cell line: HFF ; read by: virus yield ; value: <0.9 µM
O=C(Nc1cccc(-c2n[nH]c(=O)n2C2CCCCC2)c1)Nc1ccc(F)c(Cl)c1 ; cell line: NHDF ; read by: cytopathic effect ; value: 0.29 µM

Repeating the final 8 entries:

Cc1cc(C)cc(Cn2c(=O)ccn(Cc3ccccc3Cl)c2=O)c1 ; strain: AD169 ; value: 21 µM
Nc1nc(=O)n([C@H]2O[C@@H](CO)[C@H](O)[C@H]2F)cc1I ; strain: WF1 ; cell line: FLOW 2002 ; read by: plaque count ; value: >100 µg/mL
CNc1cccc2c(S(=O)(=O)Nc3ccc(NC(=O)C(C)(C)C(=O)O)cc3)cccc12 ; strain: DAVIS ; cell line: Human embryonic lung fibroblasts ; read by: cytopathic effect ; value: 125 µM
Nc1nc(-c2ccc(NC(=O)CCN(C(=O)c3cccnc3)C3CCc4ccccc43)cc2)cs1 ; strain: AD169 ; cell line: HS68 ; read by: plaque count / crystal violet ; value: 8 µM
O=C(Nc1cccc(F)c1)Nc1cccc(C2=NNC(=O)C23CCCCC3)c1 ; cell line: NHDF ; read by: cytopathic effect ; value: 1.9 µM
OC[C@H]1O[C@@H](n2c(Cl)nc3cc(Cl)c(Cl)cc32)[C@H](O)[C@@H]1O ; strain: C4 (D341E) ; read by: virus yield ; value: <25 µM
OC[C@H]1O[C@@H](n2c(Br)nc3cc(Cl)c(Cl)cc32)[C@H](O)[C@@H]1O ; strain: TOWNE ; cell line: HFF ; read by: virus yield ; value: <0.9 µM
O=C(Nc1cccc(-c2n[nH]c(=O)n2C2CCCCC2)c1)Nc1ccc(F)c(Cl)c1 ; cell line: NHDF ; read by: cytopathic effect ; value: 0.29 µM